This is an account of results in ChEMBL document CHEMBL3244068 (J Med Chem, 1978).

The species entered for the data set is Rattus norvegicus. Put plainly: Toxicity in rat allografted with rat Walker 256 cells. Type of data set: organism-based.

Molecules are shown by their SMILES.

Regarding `O=C(O)c1ccc(N(CCI)CCI)cc1`, the log1/CLD50 came to 3.3.

Take `CC(=O)Sc1ccc(N(CCBr)CCBr)cc1`: the log1/CLD50 came to 3.79.
